# Share of PSTVd loop 6 variants by leaf site

PSTVd intermediate strain, loop 6: wild type UGACCGCGAG, pool pattern UNNNCGNNNG; upper and lower strand joined, each 5' to 3', the first 5 letters being the upper strand, closing pairs included.

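A pool of all variants was put on leaves of three Nicotiana benthamiana plants. Progeny were sequenced from the inoculated region (day 5), the margin of the inoculated leaf (day 10) and systemic leaves (day 12).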

Values are reads per thousand in the sample; higher means more abundant, 0 means not found.
Each site shows the three plants.
"Pool" is the share in the plasmid pool used as inoculum, on the same scale.
The inoculated region was read from the minus strand, the other sites from the plus strand.
IR is the inoculated region, LM the leaf margin, Sys the systemic leaves.
The authors trace changes outside the varied positions to PCR and sequencing errors or to mutation in the plant; presence does not show that a variant is infectious alone.
With 36,220-57,551 reads a sample, very low values are single reads.
Wild type was 20.7 per thousand in the pool and the most common sequence in every sample (inoculated region 195, 198, 203; leaf margin 629, 591, 734; systemic leaves 942, 870, 868).

sequence	pool	IR	LM	Sys
UACACGGUGG	0.261	0.0521 / 0.144 / 0.0922	0 / 0 / 0.0464	0 / 0 / 0
UCUACGGAGU	0.0131	0 / 0 / 0	0 / 0 / 0	0 / 0 / 0
UUUCCGAAGG	0.105	0.156 / 0.108 / 0.111	0 / 0 / 0	0 / 0 / 0
UGAUCGAUAG	0.353	0.174 / 0.126 / 0.111	0 / 0 / 0.162	0 / 0 / 0
UCGACGCUCG	0.235	0.0695 / 0.0539 / 0.0922	0.0276 / 0 / 0.0232	0 / 0 / 0
UGAACGGUAG	0.157	0.626 / 4.20 / 5.81	1.10 / 1.06 / 1.18	0.180 / 0.566 / 0.472
UAGGCGCUGG	0.301	0.122 / 0.162 / 0.0922	0 / 0 / 0	0 / 0 / 0
UUUACGAAAG	0.209	0.174 / 0.108 / 0.0922	0 / 0 / 0	0 / 0 / 0
UUGGCGGCGG	0.327	0.0869 / 0.0539 / 0.0369	0 / 0 / 0	0 / 0 / 0
UGGCCGUAGG	0.235	0.122 / 0.198 / 0.166	0 / 0 / 0.0232	0 / 0 / 0
UAGCCGGGUG	0.144	0.0521 / 0.144 / 0.111	0.0552 / 0 / 0	0 / 0 / 0
UGGGCGGACG	0.248	0.122 / 0.0719 / 0.0184	0.0276 / 0 / 0	0 / 0 / 0
UUUUCGUGGG	0.183	0.0869 / 0.0539 / 0.0369	0 / 0 / 0	0 / 0 / 0
UAGCCGUUUG	0.445	0.0695 / 0.0898 / 0.111	0.110 / 0 / 0.0232	0 / 0 / 0
UUUACGCAGG	0.209	0.139 / 0.126 / 0.0738	0.0552 / 0 / 0.0232	0 / 0 / 0
UGCUCGCUGG	0.170	0.122 / 0.0359 / 0.0738	0 / 0 / 0.0232	0 / 0 / 0
UCAUCGUCGG	0.157	0.174 / 0.0719 / 0.129	0 / 0 / 0	0 / 0 / 0
UAGUCGUGUG	0.288	0.139 / 0.0359 / 0.0738	0 / 0 / 0	0 / 0 / 0
UAACCGACGG	0.353	0 / 0.0719 / 0.111	0 / 0 / 0	0 / 0 / 0
UACCCGCUCG	0.170	0.104 / 0.126 / 0.0369	0 / 0 / 0.0232	0 / 0 / 0
UAAACGUCGG	0.157	0.122 / 0.108 / 0.0738	0 / 0 / 0	0 / 0 / 0
UACCCGUUCG	0.196	0.139 / 0.108 / 0.0369	0.0276 / 0 / 0.0232	0 / 0 / 0
UACUCGGCGG	0.248	0.122 / 0.0719 / 0.0553	0 / 0 / 0	0 / 0 / 0
UGUGCGUCGG	0.248	0.139 / 0.0898 / 0.0369	0.0552 / 0 / 0.0232	0 / 0 / 0
UAGGCGGAUG	0.314	0.174 / 0.0180 / 0.129	0.0828 / 0 / 0	0 / 0 / 0
UCCGCGGGGG	0.0784	0.122 / 0.0359 / 0.0369	0 / 0 / 0	0 / 0 / 0
UAUGCGCCGG	0.170	0.0521 / 0.0719 / 0.0553	0 / 0 / 0.0232	0 / 0 / 0
UCCUCGGACG	0.222	0.0348 / 0.0898 / 0.0922	0 / 0 / 0.0232	0 / 0 / 0
UCACCGCAAG	0.0392	0.643 / 0.826 / 0.443	0 / 0.126 / 0.209	0.0180 / 0.0404 / 0.0205
UUAUCGUCUG	0.301	0.0695 / 0.0719 / 0.0922	0 / 0 / 0	0 / 0 / 0
UCUACGCGCG	0.248	0.122 / 0.0898 / 0.166	0.0276 / 0 / 0	0 / 0 / 0
UGAACGUUCG	0.196	0.122 / 0.216 / 0.240	0.0828 / 0 / 0	0 / 0 / 0
UUCUCGCAGG	0.248	0.191 / 0.0898 / 0.0553	0 / 0 / 0	0 / 0 / 0
UGGUCGUUCG	0.353	0.0695 / 0.0898 / 0.0922	0 / 0 / 0	0 / 0 / 0
UUCGCGGUGG	0.366	0.0869 / 0.108 / 0.0553	0 / 0.0757 / 0	0 / 0 / 0
UCCCCGAGAG	0.275	0.122 / 0.144 / 0.0922	0 / 0.732 / 0.0464	0 / 0 / 0
UCUCCACGGG	0.0131	0 / 0 / 0	0 / 0 / 0	0 / 0 / 0
UGAUCGGGAG	0.353	0.851 / 4.08 / 6.31	1.13 / 1.41 / 0.975	0.162 / 0.586 / 4.29
UUGGCGAUAG	0.366	0.0521 / 0.144 / 0.0922	0.0276 / 0 / 0.139	0 / 0 / 0
UGCCCGGGCG	0.144	0.122 / 0.0539 / 0.111	0 / 0 / 0	0 / 0 / 0
UACACGCUUG	0.209	0.156 / 0.0359 / 0.0369	0.0276 / 0 / 0.0232	0 / 0 / 0
UACUCGUGGG	0.144	0.139 / 0.0539 / 0.0184	0.0276 / 0 / 0	0 / 0 / 0
UCCACGGCUG	0.327	0 / 0.108 / 0.0553	0.0276 / 0 / 0	0 / 0 / 0
UAUACGAUAG	0.340	0.174 / 0.126 / 0.0369	0 / 0 / 0.162	0 / 0 / 0
GGUCCGGCCG	0.0131	0 / 0 / 0	0 / 0 / 0	0 / 0 / 0
UGGCCUGUGG	0.0131	0 / 0 / 0	0 / 0 / 0	0 / 0 / 0
UCAACGAGUG	0.222	0.139 / 0.0898 / 0.166	0 / 0 / 0	0 / 0 / 0
UUCUCGAACG	0.314	0.122 / 0.0359 / 0.0922	0 / 0 / 0.0232	0 / 0 / 0
UAAUCGAUUG	0.379	0.156 / 0.0719 / 0.0738	0 / 0 / 0.0232	0 / 0 / 0
UGCACGGCGG	0.235	0.156 / 0.144 / 0.0553	0.0276 / 0 / 0	0 / 0 / 0
UCUCCGAAAG	0.0915	0.174 / 0.126 / 0.0553	0 / 0 / 0	0 / 0 / 0
UAUCCGGACG	0.196	0.156 / 0.0719 / 0.111	0 / 0 / 0	0 / 0 / 0
UGUUCGGACG	0.275	0.122 / 0.0898 / 0.0738	0.0276 / 0 / 0.0232	0 / 0.0202 / 0
UCGGCGUAGG	0.301	0.0521 / 0.0719 / 0	0 / 0 / 0	0 / 0 / 0
UCGCCGACAG	0.209	0.174 / 0.0898 / 0.0369	0 / 0 / 0.0464	0 / 0 / 0
UUCUCGCACG	0.366	0.156 / 0.126 / 0.0922	0 / 0 / 0	0 / 0 / 0
UGUGCGUCCG	0.209	0.0869 / 0.0359 / 0.129	0.0276 / 0 / 0	0 / 0 / 0
UUAGCGGGAG	0.431	0.660 / 0.665 / 0.572	0.193 / 0.0757 / 0.0232	0 / 0.0606 / 0.0410
UAGGCGAAAG	0.235	0.191 / 0.0719 / 0.166	0 / 0 / 0.0232	0 / 0 / 0
UUCGCGACCG	0.301	0.139 / 0.0719 / 0.0369	0.0276 / 0 / 0	0 / 0 / 0
UGAUCGGUAG	0.275	0.921 / 0.665 / 0.424	0.138 / 0.0504 / 0.0232	0 / 0 / 0
UUGACGAGAG	0.235	0.834 / 0.683 / 0.553	0.0552 / 0.0757 / 0.0696	0 / 0 / 0
UCAUCGUGCG	0.157	0.0695 / 0.0180 / 0.0553	0 / 0 / 0.0232	0 / 0 / 0
UACACGAGAG	0.131	0.122 / 0.0359 / 0.0184	0 / 0 / 0	0 / 0 / 0
UAGACGUUCG	0.183	0.156 / 0.0719 / 0.0922	0.0276 / 0 / 0.0464	0 / 0 / 0
UAACCGCGUG	0.170	0.712 / 0.647 / 0.406	0.166 / 0.126 / 0.0928	0 / 0 / 0

The last 6 entries again:

sequence	pool	IR	LM	Sys
UGAUCGGUAG	0.275	0.921 / 0.665 / 0.424	0.138 / 0.0504 / 0.0232	0 / 0 / 0
UUGACGAGAG	0.235	0.834 / 0.683 / 0.553	0.0552 / 0.0757 / 0.0696	0 / 0 / 0
UCAUCGUGCG	0.157	0.0695 / 0.0180 / 0.0553	0 / 0 / 0.0232	0 / 0 / 0
UACACGAGAG	0.131	0.122 / 0.0359 / 0.0184	0 / 0 / 0	0 / 0 / 0
UAGACGUUCG	0.183	0.156 / 0.0719 / 0.0922	0.0276 / 0 / 0.0464	0 / 0 / 0
UAACCGCGUG	0.170	0.712 / 0.647 / 0.406	0.166 / 0.126 / 0.0928	0 / 0 / 0

Source: Wu et al. 2024 (doi:10.1371/journal.ppat.1012142), supplementary data.